This passage reports Activity and Ratio IC50 results from ChEMBL document CHEMBL4622924.

Activity calls are given as the source filed them. No cut-off for these calls is given here.

Assay [1] relates to Mus musculus. The assay can be described thus: Antinociceptive activity in CBA/CaJ mouse model of oxaliplatin-induced neuropathic pain assessed as increase in licking latency at 80 ug/kg, sc administered daily for 4 weeks with 2 days interval per week starting from wednesday and measured on wednesday 24 hrs post-last dose by cold plate test.
The species named for assay [2] is Homo sapiens. In words: Selectivity ratio of IC50 for antagonist activity at human alpha7 nAChR expressed in Xenopus laevis oocytes to IC50 for antagonist activity at human alpha9alpha10 nAChR expressed in Xenopus laevis oocytes.

On to `C[C@@H](O)[C@@H]1NC(=O)[C@@H]2CSSC[C@@H]3NC(=O)[C@H](CCC(N)=O)NC(=O)[C@H](Cc4ccc(O)c(I)c4)NC(=O)[C@H](CCCNC(=N)N)NC(=O)[C@H](CSSC[C@H](NC(=O)CNC(=O)[C@@H](N)CCC(=O)NCCCC[C@H](C(=O)O)NC(=O)[C@H](Cc4ccc(O)cc4)NC3=O)C(=O)N2)NC(=O)[C@H](CCCNC(=N)N)NC(=O)[C@@H]2CCCN2C(=O)[C@H](CC(=O)O)NC1=O`, for which the result in assay [1] was Active. For the same compound, the Ratio IC50 in assay [2] was found to be 150.
